Pooled drug test results. Numbers come from NIAID ChemDB, via PubChem.

Common to all: growth or infection tests; species: HIV-1; endpoint: EC50

Blank or dashed fields: not listed here. ECn: concentration that inhibits the pathogen or its effect by n%. Conditions beyond the fields shown may differ between rows.

smiles | strain or isolate | mutations | cells | read by | result
Fc1cccc(F)c1CCNC(=S)Nc1ncccn1 | IIIB |  | MT-4 | cytopathic effect / MTT | 0.32 µg/mL
CC(C)C1=C2[C@H]3CC[C@@H]4[C@@]5(C)CC[C@H](OC(=O)[C@H]6C[C@@H](C(=O)O)C6(C)C)C(C)(C)[C@@H]5CC[C@@]4(C)[C@]3(C)CC[C@@]2([C@@H](O)CNCC(C)(C)NC(=O)c2ccc(Cl)cc2OCCN2CCS(=O)(=O)CC2)CC1=O | 92HT599 |  | MT-2 | p24 / ELISA | <1 µM
NC(=O)c1[nH]c2ccc(Cl)cc2c1P(=O)(c1ccccc1)c1ccccc1 | BH10 | K103N | MT-4 | cytopathic effect / MTS | >1250 µM
O=[N+]([O-])c1ccc(S(=O)(=O)Oc2ccc(N=Nc3ccc(N=Nc4ccc(OS(=O)(=O)c5ccc([N+](=O)[O-])cc5)c5ncccc45)cc3)c3cccnc23)cc1 | IIIB |  | C8166 | syncytia | 4.03 µg/mL
CCCc1cc(=O)oc2c3c(c4c(c12)OC(C)(C)C=C4)O[C@@H](C)C(C)=C3 |  |  | MT-2 | cytopathic effect / MTT | >24.7 µM
COc1ccc(S(=O)(=O)Oc2ccc(N=Nc3ccc(N=Nc4ccc(OS(=O)(=O)c5ccc(OC)cc5)c5ncccc45)cc3)c3cccnc23)cc1 | IIIB |  | C8166 | syncytia | 3.51 µg/mL
CC(C)C1=C2[C@H]3CC[C@@H]4[C@@]5(C)CC[C@H](OC(=O)[C@H]6C[C@@H](C(=O)O)C6(C)C)C(C)(C)[C@@H]5CC[C@@]4(C)[C@]3(C)CC[C@@]2([C@@H](O)CNCc2ccc3nc[nH]c3c2)CC1=O | 92HT599 |  | MT-2 | p24 / ELISA | <1 µM
Cc1cccc(-c2c3nc(c(-c4cccc(C)c4)c4ccc([nH]4)c(-c4cccc(C)c4)c4nc(c(-c5cccc(C)c5)c5ccc2[nH]5)C=C4)C=C3)c1 | LAV |  | PBMC |  | 0.05 µM
CCCc1cc(=O)oc2c3c(c4c(c12)OC(C)(C)C=C4)O[C@H](C)C(C)(C)C3=O |  |  | MT-2 | cytopathic effect / MTT | >19.3 µM
Fc1cccc(NC(=S)NCCc2c(F)cccc2F)n1 | IIIB |  | MT-4 | cytopathic effect / MTT | 0.0029 µg/mL
CC(C)C(CCOS(=O)(=O)O)CC[C@@H](C)[C@H]1[C@@H](O)[C@H](O)[C@@H]2[C@]1(C)CC[C@H]1[C@@]2(O)C[C@@H](O)[C@@]2(O)C[C@@H](O)CC[C@]12C | RF |  | CEM + CEM-SS | cytopathic effect / XTT | >100 µM
Cc1cccc(NC(=S)NCCc2c(F)cccc2F)n1 | IIIB |  | MT-4 | cytopathic effect / MTT | 0.033 µg/mL
CCCc1cc(=O)oc2c3c(c4c(c12)OC(C)(C)C=C4)O[C@H](CC)[C@H](C)[C@H]3O |  |  | MT-2 | cytopathic effect / MTT | >11.6 µM
CC(C)C1=C2[C@H]3CC[C@@H]4[C@@]5(C)CC[C@H](OC(=O)[C@H]6C[C@@H](C(=O)O)C6(C)C)C(C)(C)[C@@H]5CC[C@@]4(C)[C@]3(C)CC[C@@]2(CCNCC2(N)CCCCC2)CC1=O | 92HT599 |  | MT-2 | p24 / ELISA | <1 µM
Cc1nc(NC(=S)NCCc2c(F)cccc2F)ccc1Br | IIIB |  | MT-4 | cytopathic effect / MTT | 0.002 µg/mL
C[n+]1ccc(-c2c3nc(c(-c4cc[n+](C)cc4)c4ccc([nH]4)c(-c4cc[n+](C)cc4)c4nc(c(-c5cc[n+](C)cc5)c5ccc2[nH]5)C=C4)C=C3)cc1 | LAV |  | PBMC |  | 3.23 µM
C[C@H](CCC(=O)NC(CO)CS(=O)(=O)O)[C@H]1[C@@H](O)[C@H](O)C2C3C[C@@H](O)[C@@]4(O)C[C@@H](O)CC[C@]4(C)C3CC[C@@]21C | RF |  | CEM + CEM-SS | cytopathic effect / XTT | >100 µM
Oc1ccc(N=Nc2ccc(N=Nc3ccc(O)c4ncccc34)cc2)c2cccnc12 | IIIB |  | C8166 | syncytia | 0.45 µg/mL
Cc1ccc(-c2c3nc(c(-c4ccc(C)cc4)c4ccc([nH]4)c(-c4ccc(C)cc4)c4nc(c(-c5ccc(C)cc5)c5ccc2[nH]5)C=C4)C=C3)cc1 | LAV |  | PBMC |  | 0.754 µM
CC(C)CCC[C@@H](COS(=O)(=O)[O-])[C@H]1CCC2C3CC=C4[C@@H](O)[C@H](OS(=O)(=O)[O-])[C@H](O)C[C@]4(C)C3CC[C@@]21C.[Na+].[Na+] | RF |  | CEM + CEM-SS | cytopathic effect / XTT | >100 µM
Cc1noc(C)c1C(=O)NC(C)(C)CNC[C@H](O)[C@@]12CC[C@]3(C)[C@H](CC[C@@H]4[C@@]5(C)CC[C@H](OC(=O)[C@H]6C[C@@H](C(=O)O)C6(C)C)C(C)(C)[C@@H]5CC[C@]43C)C1=C(C(C)C)C(=O)C2 | 92HT599 |  | MT-2 | p24 / ELISA | <1 µM
Cc1ccc(NC(=O)CN2CCN(Cc3nc(-c4ccc(F)cc4)no3)CC2)cc1 | G-3 |  | PBMC | RT activity | 12.5 µM
CC(C)C1=C2[C@H]3CC[C@@H]4[C@@]5(C)CC[C@H](OC(=O)[C@H]6C[C@@H](C(=O)O)C6(C)C)C(C)(C)[C@@H]5CC[C@@]4(C)[C@]3(C)CC[C@@]2([C@@H](O)CNCC(C)(C)NC(=O)c2ccc(O[C@@H]3CCOC3)cc2)CC1=O | 92HT599 |  | MT-2 | p24 / ELISA | <1 µM
Cc1ccnc2c1NC(=O)c1cccnc1N2C1CC1 | p8.9 | N348I | HEK293T | luciferase | 235 nM
CC(C)CC[C@@H](O)[C@@H](C)[C@H]1CCC2C3C[C@H](OS(=O)(=O)O)C4C[C@@H](OS(=O)(=O)O)CC[C@]4(C)C3=CC[C@@]21C | RF |  | CEM + CEM-SS | p24 | 101 µM
CCCc1cc(=O)oc2c3c(c4c(c12)OC(C)(C)C=C4)OC(C)(C)[C@H](C)[C@@H]3O |  |  | MT-2 | cytopathic effect / MTT | >21.3 µM
CC(C)C1=C2[C@H]3CC[C@@H]4[C@@]5(C)CC[C@H](OC(=O)[C@H]6C[C@@H](C(=O)O)C6(C)C)C(C)(C)[C@@H]5CC[C@@]4(C)[C@]3(C)CC[C@@]2([C@@H](O)CNCC(C)(C)NC(=O)c2ccc(Cl)c(Cl)c2)CC1=O | 92HT599 |  | MT-2 | p24 / ELISA | <1 µM
COc1ccc2c(c1)C1(c3ccccc3)SCCN1C2=O |  |  | MT-2 | cytopathic effect / MTT | 1.18 µM
Cc1cc(S(N)(=O)=O)ccc1NC(=O)COc1ccccc1C(=O)c1cc(Cl)cc(C#N)c1 | WT |  | HeLa MAGI + HeLa | β-galactosidase | ~0.0005 µM
O=[N+]([O-])c1cc(S(=O)(=O)Oc2ccc(N=Nc3ccc(N=Nc4ccc(OS(=O)(=O)c5ccc(Cl)c([N+](=O)[O-])c5)c5ncccc45)cc3)c3cccnc23)ccc1Cl | IIIB |  | C8166 | syncytia | 2.69 µg/mL
CCCc1cc(=O)oc2c3c(c4c(c12)OC(C)(C)C=C4)O[C@H](CC)[C@H](C)[C@@H]3O |  |  | MT-2 | cytopathic effect / MTT | >20.9 µM

A second listing of 5 rows from above:

C[C@H](CCC(=O)NC(CO)CS(=O)(=O)O)[C@H]1[C@@H](O)[C@H](O)C2C3C[C@@H](O)[C@@]4(O)C[C@@H](O)CC[C@]4(C)C3CC[C@@]21C ; strain or isolate: RF ; cells: CEM + CEM-SS ; read by: cytopathic effect / XTT ; result: >100 µM
Cc1ccc(-c2c3nc(c(-c4ccc(C)cc4)c4ccc([nH]4)c(-c4ccc(C)cc4)c4nc(c(-c5ccc(C)cc5)c5ccc2[nH]5)C=C4)C=C3)cc1 ; strain or isolate: LAV ; cells: PBMC ; result: 0.754 µM
CC(C)C1=C2[C@H]3CC[C@@H]4[C@@]5(C)CC[C@H](OC(=O)[C@H]6C[C@@H](C(=O)O)C6(C)C)C(C)(C)[C@@H]5CC[C@@]4(C)[C@]3(C)CC[C@@]2(CCNCC2(N)CCCCC2)CC1=O ; strain or isolate: 92HT599 ; cells: MT-2 ; read by: p24 / ELISA ; result: <1 µM
Cc1ccnc2c1NC(=O)c1cccnc1N2C1CC1 ; strain or isolate: p8.9 ; mutations: N348I ; cells: HEK293T ; read by: luciferase ; result: 235 nM
Cc1noc(C)c1C(=O)NC(C)(C)CNC[C@H](O)[C@@]12CC[C@]3(C)[C@H](CC[C@@H]4[C@@]5(C)CC[C@H](OC(=O)[C@H]6C[C@@H](C(=O)O)C6(C)C)C(C)(C)[C@@H]5CC[C@]43C)C1=C(C(C)C)C(=O)C2 ; strain or isolate: 92HT599 ; cells: MT-2 ; read by: p24 / ELISA ; result: <1 µM